The list shows a part of the results. Env chains of viruses from a treatment-interruption trial, translated from the printed DNA. IC50 / IC80 of two broadly neutralizing antibodies; lower = more sensitive virus; >50 µg/ml means not reached and <0.001 µg/ml is below the lowest dose. No active / inactive call.
B1: HIV-1 Env, rebound clone, placebo arm (protein)
chain: MIVMGMKRNWQQWWRGGILLLGMLMMICSAEDNAWVTVYYGVPVWREANVTLFCASDAKAYDTEVHNVWATHACVPTDPSPQEIKLENVTENFNMWKNDMVEQMHEDIISLWDQSLKPCVKLTPLCVTLNCTDYLGSNATNSTSGNNGTISNNITIEDSEKGEIKNCSFNVTTGIRDKMNKEYALLYKTDLVSIDNDNTSYRLISCNTSVITQACPKVTFEPIPIHYCAPAGFAILKCKDKKFNGTGPCKNVSTVQCTHGIRPVVSTQLLLNGSLAEEDVVIRSANFTNNAKVIIVQLNETVEINCTRPNNNTRKGINIGPGRAWYTIKDIVGDIRQAHCNISRPKWNRALEKIVEKLREQFGVNKTIVFNQSSGGDPEIVMHHFNCQGEFFYCNTTGLFNTRWNGTWNDTAGQGNNETITLPCRIRQIVNLWQEVGKAMYAPPIRGYINCSSNITGLLLVRDGGIKNSTNDTDNNTEIFRPGGGDMRDNWRSELYKYKVVQVEPVGIAPTRAKRRVVQREKRAVTLGAMFLGFLGTAGSTMGAASLTLTVQVRQLLSGIVQQQNNLLRAIEAQQHLLQLTVWGIKQLQARVLAVERYLRDQQILGIWGCSGKLICTTAVPWNTSWSNKSVDHIWGNMTWMQWEREIENYTGVIYKLLEESQNQQEKNEQDLLELDKWASLWTWFDITHWLWYIRLFIMIVGGLIGLRIVFAVFSLVNRVRQGYSPLSFQTHLPAPRGPDRPEGIEEEGGEPDRGRSVRLVNGFLALIWDDLRSLCLFSYHRLRDLLLIVTRIVELLGRRGWEAIKYLWNLLQYWSQELKNSAVSLLNAFAIAVAEGTDRVIEIIQGAFRAIIHIPRRIRQGLERSLL
B2: HIV-1 Env, rebound clone, placebo arm (protein)
chain: MIVMGMKRNWQQWWRGGILLLGMLMMICSAEDNAWVTVYYGVPVWREANVTLFCASDAKAYDTEVHNVWATHACVPTDPSPQEIKLENVTENFNMWKNDMVEQMHEDIISLWDQSLKPCVKLTPLCVTLNCTDYLGSNATNSTSGNNGTISNNITIEDSEKGEIKNCSFNVTTGIRDKMNKEYALLYKTDLVSIDNDNTSYRLISCNTSVITQACPKVTFEPIPIHYCAPAGFAILKCKDKKFNGTGPCKNVSTVQCTHGIRPVVSTQLLLNGSLAEEDVVIRSANFTNNAKVIIVQLNETVEINCTRPNNNTRKGINIGPGRAWYTIKDIVGDIRQAHCNISRPKWNRALEKIVEKLREQFGVNKTIVFNQSSGGDPEIVMHHFNCQGEFFYCNTTGLFNTRWNGTWNDTWENYTAGQGNNEPITLPCRIRQIVNLWQEVGKAMYAPPIRGYINCSSNITGLLLVRDGGIKNSTNDTDNNTEIFRPGGGDMRDNWRSELYKYKVVQVEPVGIAPTRAKRRVVQREKRAVTLGAMFLGFLGTAGSTMGAASLTLTVQVRQLLSGIVQQQNNLLRAIEAQQHLLQLTVWGIKQLQARVLAVERYLRDQQILGIWGCSGKLICTTAVPWNTSWSNKSVDHIWGNMTWMQWEREIENYTGVIYKLLEESQNQQEKNEQDLLELDKWASLWTWFDITHWLWYIRLFIMIVGGLIGLRIVFAVFSLVNRVRQGYSPLSFQTHLPAPRGPDRPEGIEEEGGEPDRGRSVRLVNGFLALIWDDLRSLCLFSYHRLRDLLLIVTRIVELLGRRGWEAIKYLWNLLQYWSQELKNSAVSLLNAFAIAVAEGTDRVIEIIQGAFRAIIHIPRRIRQGLERSLL
B3: HIV-1 Env, rebound clone, placebo arm (protein)
chain: MIVMGMKRNWQQWWRGGILLLGMLMMICSAEDNAWVTVYYGVPVWREANVTLFCASDAKAYDTEVHNVWATHACVPTDPSPQEIKLENVTENFNMWKNDMVEQMHEDIISLWDQSLKPCVKLTPLCVTLNCTDYLGSNATNSTSGNNGTISNNITIEDSEKGEIKNCSFNVTTGIRDKMNKEYALLYKTDLVSIDNDNTSYRLISCNTSVITQACPKVTFEPIPIHYCAPAGFAILKCKDKKFNGTGPCKNVSTVQCTHGIRPVVSTQLLLNGSLAEEDVVIRSANFTNNAKVIIVQLNETVEINCTRPNNNTRKGINIGPGRAWYTIKDIVGDIRQAHCNISRPKWNRALEKIVEKLREQFGVNKTIVFNQSSGGDPEIVMHHFNCQGEFFYCNTTGLFNTRWNGTWNDTWENYTAGQGNNEPITLPCRIRQIVNLWQEVGKAMYAPPIRGYINCSSNITGLLLVRDGGIKNSTNDTDNNTEIFRPGGGDMRDNWRSKLYKYKVVQVEPVGIAPTRAKRRVVQREKRAVTLGAVFLGFLGTAGSTMGAASLTLTVQVRQLLSGIVQQQNNLLRAIEAQQHLLQLTVWGIKQLQARVLAVERYLRDQQILGIWGCSGKLICTTAVPWNTSWSNKSVDHIWGNMTWMQWEREIENYTGVIYKLLEESQNQQEKNEQDLLELDKWASLWTWFDITHWLWYIRLFIMIVGGLIGLRIVFAVFSLVNRVRQGYSPLSFQTHLPAPRGPDRPEGIEEEGGEPDRGRSVRLVNGFLALIWDDLRSLCLFSYHRLRDLLLIVTRIVELLGRRGWEAIKYLWNLLQYWSQELKNSAVSLLNAFAIAVAEGTDRVIEIIQGAFRAIIHIPRRIRQGLERSLL
B4: HIV-1 Env, rebound clone, placebo arm (protein)
chain: MIVMGMKRNWQQWWRGGILLLGMLMMICSAEDNAWVTVYYGVPVWREANVTLFCASDAKAYDTEVHNVWATHACVPTDPSPQEIKLENVTENFNMWKNNMVEQMHEDIISLWDQSLKPCVKLTPLCVTLNCTDYLGSNATNSTSGNNGTISNNITIEDSEKGEIKNCSFNVTTGIRDKMNKEYALLYKTDLVSIDNDNTSYRLISCNTSVITQACPKVTFEPIPIHYCAPAGFAILKCKDKKFNGTGPCKNVSTVQCTHGIRPVVSTQLLLNGSLAEEDVVIRSANFTNNAKVIIVQLNETVEINCTRPNNNTRKGINIGPGRAWYTIKDIVGDIRQAHCNISRPKWNRALEKIVEKLREQFGVNKTIVFNQSSGGDPEIVMHHFNCQGEFFYCNTTGLFNTRWNDTRNDTWENYTAGQGNNETITLPCRIRQIVNLWQEVGKAMYAPPIRGYINCSSNITGLLLVRDGGIKNSTNDTDNNTEIFRPGGGDMRDNWRSELYKYKVVQVEPVGIAPTRAKRRVVQREKRAVTLGAMFLGFLGTAGSTMGAASLTLTVQVRQLLSGIVQQQNNLLRAIEAQQHLLQLTVWGIKQLQARVLAVERYLRDQQILGIWGCSGKLICTTAVPWNTSWSNKSVDHIWGNMTWMQWEREIENYTGVIYKLLEESQNQQEKNEQDLLELDKWASLWTWFDITHWLWYIRLFIMIVGGLIGLRIVFAVFSLVNRVRQGYSPLSFQTHLPAPRGPDRPEGIEEEGGEPDRGRSVRLVNGFLALIWDDLRSLCLFSYHRLRDLLLIVTRIVELLGRRGWEAIKYLWNLLQYWSQELKNSAVSLLNAFAIAVAEGTDRVIEIIQGAFRAIIHIPRRIRQGLERSLL
B5: HIV-1 Env, rebound clone, placebo arm (protein)
chain: MIVMGMKRNWQQWWRGGILLLGMLMMICSAEDNAWVTVYYGVPVWREANVTLFCASDAKAYDTEVHNVWATHACVPTDPSPQEIKLENVTENFNMWKNNMVEQMHEDIISLWDQSLKPCVKLTPLCVTLNCTDYLGSNATNSTSGNNGTISNNITIEDSEKGEIKNCSFNVTTGIRDKMNKEYALLYKTDLVSIDNDNTSYRLISCNTSVITQACPKVTFEPIPIHYCAPAGFAILKCKDKKFNGTGPCKNVSTVQCTHGIRPVVSTQLLLNGSLAEEDVVIRSANFTNNAKVIIVQLNETVEINCTRPNNNTRKGINIGPGRAWYTIKDIVGDIRQAHCNISRPKWNRALEKIVEKLREQFGVNKTIVFNQSSGGDPEIVMHHFNCQGEFFYCNTTGLFNTRWNDTWENYTAGQGNNETITLPCRIRQIVNLWQEVGKAMYAPPIRGYINCSSNITGLLLVRDGGIKNSTNDTDNNTEIFRPGGGDMRDNWRSELYKYKVVQVEPVGIAPTRAKRRVVQREKRAVTLGAMFLGFLGTAGSTMGAASLTLTVQVRQLLSGIVQQQNNLLRAIEAQQHLLQLTVWGIKQLQARVLAVERYLRDQQILGIWGCSGKLICTTAVPWNTSWSNKSVDHIWGNMTWMQWEREIENYTGVIYKLLEESQNQQEKNEQDLLELDKWASLWTWFDITHWLWYIRLFIMIVGGLIGLRIVFAVFSLVNRVRQGYSPLSFQTHLPAPRGPDRPEGIEEEGGEPDRGRSVRLVNGFLALIWDDLRSLCLFSYHRLRDLLLIVTRIVELLGRRGWEAIKYLWNLLQYWSQELKNSAVSLLNAFAIAVAEGTDRVIEIIQGAFRAIIHIPRRIRQGLERSLL
B6: HIV-1 Env, rebound clone, placebo arm (protein)
chain: MIVMGMKRNWQQWWRGGILLLGMLMMICSAEDNAWVTVYYGVPVWREANVTLFCASDAKAYDTEVHNVWATHACVPTDPSPQEIKLENVTENFNMWKNNMVEQMHEDIISLWDQSLKPCVKLTPLCVTLNCTDYLGSNATNSTSGNNGTISNNITIEDSEKGEIKNCSFNVTTGIRDKMNKEYALLYKTDLVSIDNDNTSYRLISCNTSVITQACPKVTFEPIPIHYCAPAGFAILKCKDKKFNGTGPCKNVSTVQCTHGIRPVVSTQLLLNGSLAEEDVVIRSANFTNNAKVIIVQLNETVEINCTRPNNNTRKGINIGPGRAWYTIKDIVGDIRQAHCNISRPKWNRALEKIVEKLREQFGVNKTIVFNQSSGGDPEIVMHHFNCQGEFFYCNTTGLFNTRWNDTWENYTAGQGNNETITLPCRIRQIVNLWQEVGKAMYAPPIRGYINCSSNITGLLLVRDGGIKNSTNDTDNNTEIFRPGGGDMRDNWRSELYKYKVVQVEPVGIAPTRAKRRVVQREKRAVTLGAVFLGFLGTAGSTMGAASLTLTVQVRQLLSGIVQQQNNLLRAIEAQQHLLQLTVWGIKQLQARVLAVERYLRDQQILGIWGCSGKLICTTAVPWNTSWSNKSVDHIWGNMTWMQWEREIENYTGVIYKLLEESQNQQEKNEQDLLELDKWASLWTWFDITHWLWYIRLFIMIVGGLIGLRIVFAVFSLVNRVRQGYSPLSFQTHLPAPRGPDRPEGIEEEGGEPDRGRSVRLVNGFLALIWDDLRSLCLFSYHRLRDLLLIVTRIVELLGRRGWEAIKYLWNLLQYWSQELKNSAVSLLNAFAIAVAEGTDRVIEIIQGAFRAIIHIPRRIRQGLERSLL

Target: antibody 10-1074
Experiment: neutralization IC50; higher = virus less sensitive to the antibody
Description: (§1)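 Pseudovirus bearing the Env chain mixed with antibody, from 50 µg/ml in fivefold dilutions, on TZM-bl reporter cells, in duplicate.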

| Binder | neutralization IC50 |
| --- | --- |
| B1 | 0.218 µg/mL |
| B2 | 0.156 µg/mL |
| B3 | 0.039 µg/mL |
| B4 | 0.162 µg/mL |
| B5 | 0.356 µg/mL |
| B6 | 0.387 µg/mL |

Target: antibody 3BNC117
Experiment: as above
Description: as §1

| Binder | neutralization IC50 |
| --- | --- |
| B1 | 0.259 µg/mL |
| B2 | 0.322 µg/mL |
| B3 | 0.055 µg/mL |
| B4 | 0.198 µg/mL |
| B5 | 0.39 µg/mL |
| B6 | 0.499 µg/mL |

Target: antibody 10-1074
Experiment: neutralization IC80; higher = virus less sensitive to the antibody
Description: as §1

| Binder | neutralization IC80 |
| --- | --- |
| B1 | 0.641 µg/mL |
| B2 | 0.452 µg/mL |
| B3 | 0.172 µg/mL |
| B4 | 0.496 µg/mL |
| B5 | 1.28 µg/mL |
| B6 | 1.35 µg/mL |

Target: antibody 3BNC117
Experiment: as above
Description: as §1

| Binder | neutralization IC80 |
| --- | --- |
| B1 | 0.909 µg/mL |
| B2 | 1.1 µg/mL |
| B3 | 0.26 µg/mL |
| B4 | 0.725 µg/mL |
| B5 | 1.33 µg/mL |
| B6 | 1.7 µg/mL |
